PubChem BioAssay AID1259414 – Drosophila RNAi Screening Center, 2018

- Aim: 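Genome-wide screen for host control of endosymbiont load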 (primary screen)
- Cell system: Drosophila JW18 cells infected with Wolbachia
- Reagent: long dsRNA against Drosophila genes, 0.25 µg dsRNA per well of a 384-well plate
- Time to read-out: 5 days
- Challenge: cells persistently infected with Wolbachia before knock-down; no added drug
- Measured: 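Automated imaging of bacterial rRNA staining divided by host cell count, reported as plate-normalised robust z-score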
- Reading the numbers: Wolbachia per cell robust z: higher = more Wolbachia per host cell than the plate typical
- Active means: 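Active if absolute robust z reaches 1.5 in two or more of three replicates, leaving out multi- or no-target dsRNAs, genes unexpressed in JW18 and A1 wells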
In all, the deposit lists about 24,000 reagents; shown is an unselected part of those with a known target gene and a result. Over the whole deposit, about 1,210 (5%) were called active. 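Inactive calls also include excluded dsRNAs with several or no targets, genes unexpressed in JW18, and well A1, regardless of score.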 Names joined by + are all predicted targets of the reagent.

Depletion of ppk20 [DRSC16260] gave: Wolbachia per cell robust z, rep 1 = 0.199; Wolbachia per cell robust z, rep 2 = -4.43; Wolbachia per cell robust z, rep 3 = -0.186; inactive.
ppk20 [DRSC28819] showed Wolbachia per cell robust z, rep 1 = 0.776; Wolbachia per cell robust z, rep 2 = 1.92; Wolbachia per cell robust z, rep 3 = 0.204; inactive.
For CG2611 [DRSC02710], the values are Wolbachia per cell robust z, rep 1 = 0.11; Wolbachia per cell robust z, rep 2 = -1.58; Wolbachia per cell robust z, rep 3 = 0.643; inactive.
After knock-down of CG2611 [DRSC26640] the results were Wolbachia per cell robust z, rep 1 = -0.125; Wolbachia per cell robust z, rep 2 = -7.99; Wolbachia per cell robust z, rep 3 = -0.968; inactive.
Ent1 [DRSC00330] gave Wolbachia per cell robust z, rep 1 = 0.417; Wolbachia per cell robust z, rep 2 = 0.615; Wolbachia per cell robust z, rep 3 = -0.0518; inactive.
Against Rpt4 [DRSC18713] the deposit lists Wolbachia per cell robust z, rep 1 = 1.23; Wolbachia per cell robust z, rep 2 = 1.75; Wolbachia per cell robust z, rep 3 = 1.33; inactive.
CG32432 [DRSC11744] gave Wolbachia per cell robust z, rep 1 = 0.673; Wolbachia per cell robust z, rep 2 = 1.36; Wolbachia per cell robust z, rep 3 = -0.483; inactive.
Against Rcd-1r + CG13102 [DRSC03266] the deposit lists Wolbachia per cell robust z, rep 1 = 0.353; Wolbachia per cell robust z, rep 2 = -0.176; Wolbachia per cell robust z, rep 3 = 0.0265; inactive.
CG8534 [DRSC16439] gave Wolbachia per cell robust z, rep 1 = -0.334; Wolbachia per cell robust z, rep 2 = -7.45; Wolbachia per cell robust z, rep 3 = 0.116; inactive.
Depletion of CG33474 [DRSC05218] resulted in: Wolbachia per cell robust z, rep 1 = -1.14; Wolbachia per cell robust z, rep 2 = -1.61; Wolbachia per cell robust z, rep 3 = 0.181; inactive.
CG14269 [DRSC17912] gave Wolbachia per cell robust z, rep 1 = 0.752; Wolbachia per cell robust z, rep 2 = -3.66; Wolbachia per cell robust z, rep 3 = -1.35; inactive.
After knock-down of CG17283 [DRSC15219], the record shows Wolbachia per cell robust z, rep 1 = 0.673; Wolbachia per cell robust z, rep 2 = -4.1; Wolbachia per cell robust z, rep 3 = 0.362; inactive.
CG34008 [DRSC37919] gave Wolbachia per cell robust z, rep 1 = 1.16; Wolbachia per cell robust z, rep 2 = 0.218; Wolbachia per cell robust z, rep 3 = -0.109; inactive.

Reformatted: results already given.
{"target gene":"CG2611","DRSC id":"DRSC02710","Wolbachia per cell robust z, rep 1":0.11,"Wolbachia per cell robust z, rep 2":-1.58,"Wolbachia per cell robust z, rep 3":0.643,"call":"inactive"}
{"target gene":"CG2611","DRSC id":"DRSC26640","Wolbachia per cell robust z, rep 1":-0.125,"Wolbachia per cell robust z, rep 2":-7.99,"Wolbachia per cell robust z, rep 3":-0.968,"call":"inactive"}
{"target gene":"Ent1","DRSC id":"DRSC00330","Wolbachia per cell robust z, rep 1":0.417,"Wolbachia per cell robust z, rep 2":0.615,"Wolbachia per cell robust z, rep 3":-0.0518,"call":"inactive"}
{"target gene":"Rpt4","DRSC id":"DRSC18713","Wolbachia per cell robust z, rep 1":1.23,"Wolbachia per cell robust z, rep 2":1.75,"Wolbachia per cell robust z, rep 3":1.33,"call":"inactive"}

Further results:
With knock-down of CG14212 [DRSC19568], the record shows Wolbachia per cell robust z, rep 1 = 0.501; Wolbachia per cell robust z, rep 2 = 0.32; Wolbachia per cell robust z, rep 3 = 0.703; inactive.
Silencing of CG14212 [DRSC27314] gave: Wolbachia per cell robust z, rep 1 = 0.71; Wolbachia per cell robust z, rep 2 = -0.596; Wolbachia per cell robust z, rep 3 = -1.53; inactive.
Silencing of CG14212 [DRSC41578] gave: Wolbachia per cell robust z, rep 1 = -0.672; Wolbachia per cell robust z, rep 2 = -0.614; Wolbachia per cell robust z, rep 3 = 0.371; inactive.
With knock-down of CG13032 [DRSC09912], the record shows Wolbachia per cell robust z, rep 1 = 0.891; Wolbachia per cell robust z, rep 2 = 0.0319; Wolbachia per cell robust z, rep 3 = 0.279; inactive.
Silencing of Arc2 [DRSC06436] resulted in: Wolbachia per cell robust z, rep 1 = 0.832; Wolbachia per cell robust z, rep 2 = -0.132; Wolbachia per cell robust z, rep 3 = 0.15; inactive.
For Arc2 [DRSC28707], the values are Wolbachia per cell robust z, rep 1 = -1.56; Wolbachia per cell robust z, rep 2 = -2.23; Wolbachia per cell robust z, rep 3 = -0.315; active.
CG14712 [DRSC14935] gave Wolbachia per cell robust z, rep 1 = 0.525; Wolbachia per cell robust z, rep 2 = 0.786; Wolbachia per cell robust z, rep 3 = 1.03; inactive.
With knock-down of lbl [DRSC16986] the results were Wolbachia per cell robust z, rep 1 = 0.29; Wolbachia per cell robust z, rep 2 = -0.411; Wolbachia per cell robust z, rep 3 = 0.477; inactive.
Rnmt [DRSC03558] showed Wolbachia per cell robust z, rep 1 = 0.137; Wolbachia per cell robust z, rep 2 = 0.0509; Wolbachia per cell robust z, rep 3 = -0.953; inactive.
With knock-down of Cyp12d1-p + Cyp12d1-d [DRSC27261], the screen gave Wolbachia per cell robust z, rep 1 = 0.587; Wolbachia per cell robust z, rep 2 = 1.04; Wolbachia per cell robust z, rep 3 = 0.24; inactive.
CG6066 [DRSC15959] showed Wolbachia per cell robust z, rep 1 = -4.61; Wolbachia per cell robust z, rep 2 = 0.448; Wolbachia per cell robust z, rep 3 = -3.65; active.
For CG6066 [DRSC22228], the values are Wolbachia per cell robust z, rep 1 = 0.589; Wolbachia per cell robust z, rep 2 = 0.379; Wolbachia per cell robust z, rep 3 = 0.485; inactive.
After knock-down of CG6066 [DRSC27936], the record shows Wolbachia per cell robust z, rep 1 = 0.401; Wolbachia per cell robust z, rep 2 = -0.952; Wolbachia per cell robust z, rep 3 = 0.578; inactive.
Against CG6066 [DRSC41272], the entry reads Wolbachia per cell robust z, rep 1 = -1.8; Wolbachia per cell robust z, rep 2 = 0.447; Wolbachia per cell robust z, rep 3 = 0.517; inactive.
CG14079 [DRSC10083] showed Wolbachia per cell robust z, rep 1 = 0.256; Wolbachia per cell robust z, rep 2 = 0.00158; Wolbachia per cell robust z, rep 3 = -1.69; inactive.
wwk [DRSC01941] gave Wolbachia per cell robust z, rep 1 = -0.819; Wolbachia per cell robust z, rep 2 = -0.0977; Wolbachia per cell robust z, rep 3 = 1.13; inactive.
For CG11961 [DRSC06099], the entry reads Wolbachia per cell robust z, rep 1 = 0.292; Wolbachia per cell robust z, rep 2 = -0.923; Wolbachia per cell robust z, rep 3 = 0.443; inactive.
